In patent publication US11767289B2, “Methods and compositions for pest control” (VMI Foundation, priority 2010, dated 2023):

System: Solenopsis invicta
Assay: GC-MS quantification of tyramides in dissected fire ant alates and newly mated queens
Conditions: for tyramide level in male reproductive system, mean±SE: per male alate, S. invicta mature male alates

| Compound | tyramide level in female alate abdomens (S. invicta female alates, poison sac/sting apparatus removed) | tyramide level in male reproductive system, mean±SE |
| --- | --- | --- |
| CC(=O)NCCc1ccc(O)cc1 [Compound 1, acetyl tyramide] | not detectable | 2.9 ± 1.6 µg |
| CCCCCC(=O)NCCc1ccc(O)cc1 [Compound 6, N-[2-(4-hydroxyphenyl)ethyl]hexanamide] | – | 3.9 ± 1.9 µg |
